## Mutational tolerance of the Zika virus NS2B-NS3 protease

Protein: NS2B and the protease part of NS3 of Zika virus strain MR766. Positions count along the chain below; NS2B spans 2-131 and NS3 starts at 132.
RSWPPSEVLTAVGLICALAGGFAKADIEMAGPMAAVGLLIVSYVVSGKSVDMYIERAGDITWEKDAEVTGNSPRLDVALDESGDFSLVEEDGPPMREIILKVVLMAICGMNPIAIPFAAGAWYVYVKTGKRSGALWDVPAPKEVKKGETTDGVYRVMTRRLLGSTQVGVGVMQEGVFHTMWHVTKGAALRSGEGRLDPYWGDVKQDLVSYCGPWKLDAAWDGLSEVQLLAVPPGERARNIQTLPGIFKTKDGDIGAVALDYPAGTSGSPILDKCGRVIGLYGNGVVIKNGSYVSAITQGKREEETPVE

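Libraries of single mutants were passaged as virus pools on Huh-7.5 cells. The effect is the change in frequency of a mutant, normalised to wild type, as a mean of three replicate libraries (two for positions 207-308). The study looked for pockets that tolerate few changes, as a guide for inhibitor design.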

Scale: log2 effect, wild type = 0; the lower, the more harmful to the virus.
A change reads original residue, position, new residue.

mutation | log2 effect
L104C | -2.23
Y123I | -1.96
F85K | -5.84
D137T | -7.53
L216W | -7.42
P139R | -7.01
S86Y | -0.15
S291T | -0.34
A118P | -6.71
G31I | -5.65
D197A | -2.13
R155C | -5.54
A30Y | -3.44
A140C | -0.90
L189T | -5.77
G222H | 0.31
L216I | -6.18
Y125S | -7.32
V36G | -1.68
I270G | -5.37
A78E | 0.34
G109M | -5.22
V138R | -6.41
L223W | -0.37
T10R | -5.72
D202W | -5.61
I60V | -2.53
V285Y | -4.62
T305N | -0.46
T249K | -3.10
P269W | -4.52
G58R | -7.61
P244K | -4.78
A187N | -4.29
Y292W | -2.97
P262Q | -3.90
V68F | -2.91
E89D | 0.88
I107* | -7.03
L196Y | -4.65
P139H | -6.12
G13C | -3.39
I270E | -3.97
M95E | -5.28
D26N | -0.54
W122T | -6.58
G264* | -7.26
G282Y | -4.18
V277C | -1.26
V176E | -4.94
V286M | -4.50
Y292R | -5.25
T242I | -5.51
G129S | -7.35
D84G | -7.21
T179D | -5.43
V183A | -6.18
K185E | -4.76
V102P | -7.67
D26E | -2.09
G168I | -4.84
P4S | -6.95
G133M | -5.33

The first 4 entries again:

mutation,log2 effect
L104C,-2.23
Y123I,-1.96
F85K,-5.84
D137T,-7.53

Stop codons (*) centre on -7 and mark the level of dead virus.
Six mutants with high scores were retested singly and none clearly outgrew wild type, so positive values are not proof of better growth.
The authors count -1 or higher as tolerated. Position 1 is the last residue of NS2A.
Positions 1-103, 104-206 and 207-308 were made and measured as separate libraries.

Reference: Ni et al. 2025, doi:10.1038/s41467-025-63602-z.